Experimental data: ChEMBL document CHEMBL4715853 (J Med Chem, 2020)

System: SARS-CoV
Assay: Antiviral activity against SARS-CoV infected in human 293T cells harboring ACE2 assessed as reduction in virus infectivity pretreated with cells followed by viral infection and measured after 2 days by luciferase based reporter gene assay
Conditions: hek293t

Structure (SMILES)	IC50 [nM]
COCCN1CCN(C(=O)N[C@@H](Cc2ccccc2)C(=O)N[C@H](/C=C/S(=O)(=O)c2ccccc2)CCc2ccccc2)CC1	0.07
CC(C)(C)N1CCN(C(=O)N[C@@H](Cc2ccccc2)C(=O)N[C@H](/C=C/S(=O)(=O)c2ccccc2)CCc2ccccc2)CC1	0.08
